Pooled drug test results. Numbers come from NIAID ChemDB, via PubChem.

Shared fields: tests in culture; agent: HIV-1; cell line: PBMC; measure: EC50

Blank or dashed fields: not listed here.

compound	strain or isolate	changes	method	conditions	value
C=CCN(C(=O)Cc1ccc([N+](=O)[O-])cc1)C1CCN(C[C@H]2CN(C(=O)C3CCCC3)C[C@]2(O)c2ccccc2)CC1			p24		0.006–0.05 µM
CCc1cn([C@H]2C[C@H](N)[C@@H](CO)O2)c(=O)[nH]c1=O	LAV		RT activity		<1 µM
Cc1cn([C@H]2C[C@H](N=[N+]=[N-])[C@@H](CO)O2)c(=O)[nH]c1=O	IIIB		p24		0.02 µM
Cc1cn([C@H]2C[C@H](F)[C@@H](CO)O2)c(=O)[nH]c1=O	BS NRTI-MDR (RT-V75I F77L F116Y Q151M)	RT-V75I F77L F116Y Q151M	antigen		0.005 µM
CC(C)CN(C[C@@H](O)[C@H](Cc1ccccc1)NC(=O)O[C@H]1CCOC1)S(=O)(=O)c1ccc(N)cc1	ERS104pre	L63P	p24 / luminescence		0.031 µM
CC(C)CN(C[C@@H](O)[C@H](Cc1ccccc1)NC(=O)O[C@H]1CCOC1)S(=O)(=O)c1ccc(N)cc1	Clinical isolate	PR-L10L/I K20R M36I I54V A71I/V V82A I84I/V L90M	p24		0.111 µM
CCN(C(=O)OCc1ccccc1)C1CCN(C[C@H]2CN(C(=O)c3ccccc3Cl)C[C@@H]2c2ccccc2)CC1	YU2		p24		<1.5 µM
Cc1cccc(NC(=S)NCCc2ccc(Br)s2)n1	IIIB				0.24 µM
O=c1[nH]cnc2c1ncn2[C@H]1CC[C@@H](CO)O1	XM-T69SSS	RT-T69SSS L210W T215Y	p24		<38 µM
COC(=O)[C@H](C)NP(=O)(OC[C@H]1O[C@@H](n2cc(C)c(=O)[nH]c2=O)C[C@@H]1N=[N+]=[N-])Oc1ccccc1	IIIB		RT activity		0.1 µM
Cc1cn([C@H]2CC[C@@H](CO)O2)c(=O)[nH]c1=O	LAV		RT activity		0.17 µM
Cc1cn([C@H]2C=C[C@@H](CO)O2)c(=O)[nH]c1=O	ERS104pre		p24		11 µM
Nc1c(S(=O)(=O)O)cc2c3c(cc(S(=O)(=O)O)cc13)C(=O)N(NC(=O)N/N=C\c1ccc(-c3ccc(C=O)cc3)cc1)C2=O	LAV		trypan blue		21.8 µM
C=CCN(C(=O)OCc1ccc2c(c1)OCO2)C1CCN([C@H]2CN(C(=O)C3CCCC3)C[C@]2(O)c2ccccc2)CC1			p24 / ELISA		>0.1 µM
Fc1cccc(F)c1C1SCc2nc3ccccc3n21	IIIB		RT activity		0.66 µM
CCCCC#CCSc1ccccc1OC(C)=O	BaL		p24		23 µM
CC(=O)CCCCn1c(=O)c2c(ncn2C)n(C)c1=O	IIIB		p24		200 µM
Nc1nncc2c([C@H]3CC[C@@H](CCP(=O)(O)O)C3(F)F)c[nH]c12	LAI				17.8 µM
Cc1cn([C@H]2C[C@H](N=[N+]=[N-])[C@@H](CO)O2)c(=O)[nH]c1=O	IIIB		p24	16 d	0.125 µM
S=C(NCCc1ccc(Br)s1)Nc1nccs1	IIIB				0.31 µM
Cc1ccc(C)n1-c1cccc(O)c1	IIIB		p24		>80 µg/mL
Nc1nc2c(ncn2[C@H]2CO[C@@H](CO)O2)c(=O)[nH]1	LAI		p24		0.25 µM
Cc1cn([C@H]2C[C@H](N)[C@@H](CO)O2)c(=O)[nH]c1=O	LAV		RT activity		>100 µM
Cc1cn([C@H]2C=C[C@@H](CO)O2)c(=O)[nH]c1=O	IIIB		p24		0.023 µM
Nc1nc(NC2CC2)c2ncn([C@H]3C=C[C@@H](CO)C3)c2n1	LAI		p24		1.2 µM
NC(=O)NO	NL4-3		p24		~100 µM
C=C(C)[C@]12C[C@@H](COc3ccccc3)[C@@]34OC5(OC1[C@@H]3[C@@H]1O[C@]1(CO)[C@@H](O)[C@]1(O)[C@@H](Oc3ccccc3)[C@@H](C)[C@H]([C@H](C)CCCCC[C@@H]5O)[C@]14C)O2	BaL		p24 / ELISA		0.0000425 µM
Fc1cccc(F)c1[C@@H]1SCc2nc3ccccc3n21	IIIB		RT activity		2.32 µM
Nc1c(S(=O)(=O)O)cc2c3c(cc(S(=O)(=O)O)cc13)C(=O)N(NC(=O)N/N=C/c1ccc(-c3ccc(/C=N/NC(=O)NN4C(=O)c5cc(S(=O)(=O)O)cc6c(N)c(S(=O)(=O)O)cc(c56)C4=O)cc3)cc1)C2=O	LAV		trypan blue		5.6 µM
CC[C@H](C)[C@H](NC(=O)C(=O)OC[C@H]1O[C@@H](n2cc(C)c(=O)[nH]c2=O)C[C@@H]1N=[N+]=[N-])C(=O)O	IIIB		p24		0.035 µM
Cc1cn([C@H]2C=C[C@@H](CO)O2)c(=O)[nH]c1=O	LAV		RT activity		0.009 µM
O=C(O)P(=O)(O)O	7076 CLADE D CLADE D		p24		46 µM
Cc1cn([C@H]2C[C@H](N=[N+]=[N-])[C@@H](CO)O2)c(=O)[nH]c1=O	BaL		p24		0.004 µM
CC(C)Nc1cccnc1N1CCN(C(=O)c2cc3cc(NS(C)(=O)=O)ccc3[nH]2)CC1	IIIB				0.01 µM
CCCN(C)C(=O)Oc1nsnc1-c1c(Cl)ccc(N)c1Cl	IIIB		cytopathic effect / MTT		0.068 µM
CN(C)c1cccc2c(S(=O)(=O)N3CCSC3c3cccnc3)cccc12	IIIB		p24	16 d	10.2 µM
Cc1cc(C)cc([C@]23SCCN2C(=O)c2ccccc23)c1	D148/88		p24 / ELISA		0.008 µM
Cc1ccnc2c1NC(=O)c1cccnc1N2C1CC1	WEJO		cytopathic effect / XTT		0.06 µM
CC[C@H](C)[C@H](NC(=O)[C@H](C(C)C)[C@@H](O)[C@H](O)[C@H](CC1CCCCC1)NC(=O)[C@H](Cc1cnc[nH]1)NC(=O)COc1cccc2ccccc12)C(=O)NCc1ccccn1	JR-CSF		p24		0.15 µM
CC1=C(C(=O)N2CCC(C)(N3CCN(C(c4cccc(F)c4)C4CCN(S(=O)(=O)C5CC5)CC4)[C@@H](C)C3)CC2)C(C)N=CN1	M-tropic		p24		0.001 µM
C[C@H](Cn1cnc2c(N)ncnc21)OCP(=O)(O)O	IIIB		p24		0.18 µM
Cc1cn([C@H]2C[C@H](N=[N+]=[N-])[C@@H](CO)O2)c(=O)[nH]c1=O	ROJO (syncytium-inducing)		cytopathic effect / XTT		0.01 µM
C=CCN(C(=O)Nc1ccc(Cl)cc1)C1CCN([C@H]2CN(C(=O)C3CCCC3)C[C@]2(O)c2ccccc2)CC1			p24 / ELISA		>0.1 µM
Cc1cn([C@H]2C[C@H](N=[N+]=[N-])[C@@H](CO)O2)c(=O)[nH]c1=O	D148/88		p24 / ELISA		0.566 µM
Cc1cn([C@H]2C[C@H](N=[N+]=[N-])[C@@H](COC(=O)c3ccncc3)O2)c(=O)[nH]c1=O	IIIB		p24		0.025 µM
O=c1[nH]c(=O)n([C@@H]2CS[C@@H](CO)O2)cc1F	LAV		RT activity		2.3 µM
C=CCN(C(=O)CCc1ccccc1)C1CCN([C@H]2CN(C(=O)C3CCCC3)C[C@]2(O)c2ccccc2)CC1			p24 / ELISA		>0.1 µM
Cc1cn([C@H]2C[C@H](N=[N+]=[N-])[C@@H](CO)O2)c(=O)[nH]c1=O	A018A				0.023–0.03 µg/mL
Cc1cccc(-c2c3nc(c(-c4cccc(C)c4)c4ccc([nH]4)c(-c4cccc(C)c4)c4nc(c(-c5cccc(C)c5)c5ccc2[nH]5)C=C4)C=C3)c1	LAV		RT activity		0.05–10 µM
Cc1cn([C@H]2C[C@H](N=[N+]=[N-])[C@@H](CO)O2)c(=O)[nH]c1=O	HXB2 Subtype B X4		RT activity		0.0025 µM
CC1(C)CC[C@]2(C(=O)O)CC[C@]3(C)C(=CC[C@@H]4[C@@]5(C)CC[C@H](O[C@@H]6OC[C@@H](O)[C@H](OC7O[C@H](CO)[C@H](O)[C@H](O)[C@H]7O)[C@H]6O)C(C)(C)[C@@H]5CC[C@]43C)[C@@H]2C1	BaL		p24 / ELISA		1.84 µg/mL
Cc1cn([C@H]2C[C@H](N=[N+]=[N-])[C@@H](CO)O2)c(=O)[nH]c1=O	JR-CSF		p24		0.001–0.003 µM
Nc1nc2c(ncn2[C@H]2CO[C@@H](CO)O2)c(=O)[nH]1		RT-K65R Q151M	cytopathic effect / XTT		30 µM
Cc1cn([C@@H]2C[C@@H](F)[C@H](CO)O2)c(=O)[nH]c1=O	LAV		RT activity		>100 µM
Cc1cn([C@H]2C[C@H](N=[N+]=[N-])[C@@H](COC(=O)C(=O)N[C@H](C(=O)O)C(C)C)O2)c(=O)[nH]c1=O	IIIB		p24		0.015 µM
Nc1ccn([C@@H]2CO[C@H](CO)S2)c(=O)n1	HXB2D (RT-M184V)	RT-M184V	p24		0.53 µM
Cc1c(-c2cnccn2)ssc1=S	IIIB		MTT		11 µM
C=CCN(C(=O)NCc1ccc(S(=O)(=O)NC)cc1)C1CCN(C[C@H]2CN(C(=O)C3CCCC3)C[C@]2(O)c2ccccc2)CC1			p24		<0.005 µM
Nc1nc(=O)n([C@@H]2CS[C@@H](CO)O2)cc1Br	LAV		RT activity		100 µM
Cc1cn([C@@H]2CC[C@H](CO)O2)c(=O)[nH]c1=O	LAV		RT activity		>10 µM
Cc1cn([C@H]2C[C@H](N=[N+]=[N-])[C@@H](CO)O2)c(=O)[nH]c1=O	ROJO		cytopathic effect / XTT		0.004 µM
C[C@H](Cn1cnc2c(N)ncnc21)OCP(=O)(O)O	96250		XTT / p24	7 d, clinical isolate	0.01 µM
O=C1CCCN2C3[C@@]45CN6CCCC/C=C/CC[C@@]3(C=C(c3nccc7c3[nH]c3ccccc37)[C@@H]4CC6)O[C@]2(CC1)C5	LAV		RT activity		0.59 µM
O=c1[nH]cnc2c1ncn2[C@H]1CC[C@@H](CO)O1	HXB2D (RT-K65R)	RT-K65R	p24 / ELISA		36 µM
Nc1nncc2c([C@H]3CC[C@@H](/C=C/P(=O)(O)O)C3(F)F)c[nH]c12	LAI				34.3 µM
COC(=O)[C@H](C)NP(=O)(OC[C@@H]1C=C[C@H](n2cc(C)c(=O)[nH]c2=O)O1)Oc1ccc(Br)cc1	Q252-2 Clinical isolate ZDV-resistant	RT-M41L L210W T215Y	p24		0.0019 µM

Repeating the final 8 entries:

Nc1nc(=O)n([C@@H]2CS[C@@H](CO)O2)cc1Br ; strain or isolate: LAV ; method: RT activity ; value: 100 µM
Cc1cn([C@@H]2CC[C@H](CO)O2)c(=O)[nH]c1=O ; strain or isolate: LAV ; method: RT activity ; value: >10 µM
Cc1cn([C@H]2C[C@H](N=[N+]=[N-])[C@@H](CO)O2)c(=O)[nH]c1=O ; strain or isolate: ROJO ; method: cytopathic effect / XTT ; value: 0.004 µM
C[C@H](Cn1cnc2c(N)ncnc21)OCP(=O)(O)O ; strain or isolate: 96250 ; method: XTT / p24 ; conditions: 7 d, clinical isolate ; value: 0.01 µM
O=C1CCCN2C3[C@@]45CN6CCCC/C=C/CC[C@@]3(C=C(c3nccc7c3[nH]c3ccccc37)[C@@H]4CC6)O[C@]2(CC1)C5 ; strain or isolate: LAV ; method: RT activity ; value: 0.59 µM
O=c1[nH]cnc2c1ncn2[C@H]1CC[C@@H](CO)O1 ; strain or isolate: HXB2D (RT-K65R) ; changes: RT-K65R ; method: p24 / ELISA ; value: 36 µM
Nc1nncc2c([C@H]3CC[C@@H](/C=C/P(=O)(O)O)C3(F)F)c[nH]c12 ; strain or isolate: LAI ; value: 34.3 µM
COC(=O)[C@H](C)NP(=O)(OC[C@@H]1C=C[C@H](n2cc(C)c(=O)[nH]c2=O)O1)Oc1ccc(Br)cc1 ; strain or isolate: Q252-2 Clinical isolate ZDV-resistant ; changes: RT-M41L L210W T215Y ; method: p24 ; value: 0.0019 µM

ECn: concentration that inhibits the pathogen or its effect by n%. a–b is a range or a potency band. Rows are shuffled and stem from different studies.